From patent US20160009768

Tested on: elongation factor-2 (EF-2)

wild type DT382 (chain not printed)
IVTT Activity: 1
Relative Activity (IVTT): 1
